Data as given in PMC10267556 (Nature Communications, 2023).

Biological target: T1, Spike (BA.4/5) (SARS-CoV-2, Omicron BA.4/5, strain)
T1 construct: source: bought: Sino Biological
Assay: SPR
Settings: both partners purified

B1: TH281 (antibody, V domains shown)
VH: EVQLVESGGGLVQPGGSLRLSCAASEITVSRNYMSWVRQAPGKGLEWVSVMFAGGSTFYADSVKGRFTISRDNSKNTLYLQMNSLRAEDTAVYYCARDLGVVGATDYWGQGTLVTVSS
VL: not shown
notes: IgG1 (D2:p3)
Kd: 199 pM
